A mixed list of measured activities; the numbers were collected in NIAID ChemDB.

Common to all: cytotoxicity tests; cells: MT-2; read-out: CC50

Conditions beyond the fields shown may differ between rows.

structure,result
Cc1ccc(-c2c([C@@H](OC(C)(C)C)C(=O)O)c(C)nc3sc4c(c23)CCCC4)c(O)c1,>20 µM
CC(C)[C@H](NC(=O)[C@@H](N)Cc1ccccc1)C(=O)N[C@@H](Cc1ccccc1)C(=O)N1CCC[C@H]1C(=O)O,78.86 µg/mL
COc1ccnc(Nc2ccc(C#N)c(Oc3cccc(Cl)c3)c2)n1,>100 µM
CSCC[C@H](N)C(=O)N[C@@H](CC(C)C)C(=O)N[C@@H](Cc1ccccc1)C(=O)N[C@H](C(=O)N[C@@H](Cc1ccccc1)C(=O)O)C(C)C,59.04 µg/mL
CCCOc1nc(N)nc2c1ncn2[C@H]1C=C[C@@H](CO)C1,>100 µM
CSCC[C@H](N)C(=O)N[C@@H](CC(C)C)C(=O)N[C@@H](Cc1ccccc1)C(=O)O,88.44 µg/mL
Cc1nc2sc3c(c2c(-c2cccc(CO)c2)c1C(OC(C)(C)C)C(=O)O)CCCC3,>20 µM
CSCC[C@@H](N)C(=O)N[C@H](CC(C)C)C(=O)N[C@H](Cc1ccccc1)C(=O)N[C@@H](C(=O)N[C@H](Cc1ccccc1)C(=O)N1CCC[C@@H]1C(=O)O)C(C)C,46.72 µg/mL
COc1nc(Nc2ccc(C#N)c(Oc3cccc(/C=C/C#N)c3)c2)nc(OC)n1,6.3 µM
O=C1NC(=O)C(CSCc2ccccc2)(CSCc2ccccc2)N1,>100 µM
CC(C)C[C@H](NC(=O)[C@@H](N)CC(N)=O)C(=O)N[C@@H](Cc1ccccc1)C(=O)N[C@H](C(=O)N[C@@H](Cc1ccccc1)C(=O)N1CCC[C@H]1C(=O)O)C(C)C,43.25 µg/mL
CCCOc1nc(N)nc2c1ncn2[C@@H]1C=C[C@H](CO)C1,98 µM
O=C1NC(=O)C(CSc2ccncc2)(CSc2ccncc2)N1,>100 µM
CC(C)C[C@H](NC(=O)[C@@H](N)CC(=O)O)C(=O)N[C@@H](Cc1ccccc1)C(=O)N[C@H](C(=O)N[C@@H](Cc1ccccc1)C(=O)N1CCC[C@H]1C(=O)O)C(C)C,75.01 µg/mL
NC(CSCc1ccccc1)(CSCc1ccccc1)C(=O)O,>100 µM
CC(C)Oc1nc(N)nc2c1ncn2[C@H]1C=C[C@@H](CO)C1,>100 µM
CCn1cc(-c2c(C(OC(C)(C)C)C(=O)O)c(C)nc3sc4c(c23)CCCC4)cn1,>20 µM
COc1ccnc(Nc2ccc(C#N)c(Sc3cccc(C)c3)c2)n1,0.47 µM
O=C1NC(=O)C(CSCc2ccc([N+](=O)[O-])cc2)(CSCc2ccc([N+](=O)[O-])cc2)N1,>5 µM
CCOC(C(=O)O)c1c(C)nc2sc3c(c2c1-c1ccc2cn[nH]c2c1)CCCC3,>20 µM
N#Cc1ccc(Nc2nccc(C3CC3)n2)cc1Oc1cc(F)cc(F)c1,4.3 µM
Cc1cc(-c2c(C(OC(C)(C)C)C(=O)O)c(C)nc3sc4c(c23)CCCC4)ccn1,>20 µM
CCCNc1nc(N)nc2c1ncn2[C@H]1C=C[C@@H](CO)C1,>100 µM
CCc1ccnc(Nc2ccc(C#N)c(Oc3cccc(/C=C/C#N)c3)c2)n1,0.36 µM
Nc1nc(N)c2ncn([C@H]3C=C[C@@H](CO)C3)c2n1,>100 µM

2 of the rows above, restated:

COc1ccnc(Nc2ccc(C#N)c(Sc3cccc(C)c3)c2)n1 ; result: 0.47 µM
N#Cc1ccc(Nc2nccc(C3CC3)n2)cc1Oc1cc(F)cc(F)c1 ; result: 4.3 µM

CCn is the concentration with n% toxicity to the cells.